# Test system: WT (W303) yeast
# Details: 200 μM, 4 h incubation
smiles,measurement,value
"CC/C=C\C/C=C\C/C=C\CCCCCCCC(=O)O [ALA, cis,cis,cis-9,12,15-Octadecatrienoic acid, reference compound]",incorporation of fatty acid by yeast,avidly incorporate

# Reference: patent US10058612B2, “Impaired energy processing disorders and mitochondrial deficiency” (priority 2011, dated 2018)
